From US11604190B2, “Chromogenic medium for the detection and identification of vancomycin resistant enterococci and method therefor” (BECTON DICKINSON AND COMPANY, priority 2006, dated 2023)

Experiments:
Test in all cases: Streak plate colony color by hydrolysis of chromogenic substrate
Type in all cases: cell-based
[1] = tested on: E. casseliflavus and E. gallinarum; conditions: Table 1 medium with inducer MGP 5.0 G/L; FIG. 2
[2] = tested on: E. faecalis; conditions: substrate 0.1 G/L
[3] = tested on: E. faecium; conditions: substrate 0.2 G/L
[4] = Table 1 medium with inducer MGP 5.0 G/L, FIG. 2

Row | Compound | colony color indicating hydrolysis of both substrates by E. casseliflavus and E. gallinarum [1] | colony color indicating hydrolysis by E. faecalis [2, 4] | colony color indicating hydrolysis by E. faecalis ([2]; Table 1 medium, FIG. 1) | colony color indicating hydrolysis by E. faecium [3, 4] | colony color indicating hydrolysis by E. faecium ([3]; Table 1 medium, FIG. 1)
1 | OC[C@H]1O[C@H](Oc2c[nH]c3ccc(Br)c(Cl)c23)[C@H](O)[C@@H](O)[C@@H]1O [indolyl-alpha-D-glucopyranoside] | blue | green | green | – | –
2 | indolyl-beta-D-galactopyranoside | blue | – | – | mauve | mauve
